Drawing on publication PMC8725944, “Design and synthesis of chromone-nitrogen mustard derivatives and evaluation of anti-breast cancer activity” (Journal of Enzyme Inhibition and Medicinal Chemistry, 2021), this text covers IC50 for one molecule.

In the test the test system is human normal breast cell line MCF-10A. The experiment in a line: CCK-8 assay, cytotoxicity to normal breast cells MCF-10A. Conditions: read-out: IC50 MCF-10A, CCK-8, 72 h, mean ± SD of three experiments.

As a reminder, the IC50 is the concentration needed to halve the response being measured.

The structures appear in SMILES notation.

`O=C(O)c1ccc(N(CCCl)CCCl)cc1`: the IC50 is greater than 40 µM.
